The text below walks through data of patent publication EP2769723A1, “Compounds for use in inhibiting HIV capsid assembly” (priority 2013, dated 2014).

SMILES strings stand for the structures. Structures can show the parent of a compound that is named as a salt.

The first test deals with CA (Human immunodeficiency virus type 1 group M subtype B, UniProt P12493). The test is described as follows: ALPHA screen (AlphaScreen): inhibition of CAI binding to CA. The conditions noted are these: read-out: α screen IC50; CAI-biotin peptide / CA-GST; compounds screened at 0.5-100 µM; tested form: 2HCl. As to the method:
The AlphaScreen experiments are performed using Perkin Elmer Enspire plate reader in white 96-well ProxiPlates and PBS supplemented with 0.05% Tween20, 2mM DTT, 2% DMSO. First, Streptavidin-coated Donor beads are used to capture the CAI-biotin peptide. In the other solution, a fusion protein of CA with glutathione-S-transferase (CA-GST) is mixed with GSH Acceptor beads. Both mixtures were incubated and then mixed together. To test the ability of prepared organic compounds to inhibit the CAI binding to CA, they are screened at concentrations between 0.5-100 µM and IC50 values are calculated from the influenced signals.
Upon illumination by laser at 680 nm, Donor beads containing the photosensitizer phthalocyanine convert ambient oxygen to an excited form of singlet oxygen ^1O2. Singlet oxygen can within its half-life of ~ 4 µs diffuse approximately 200 nm in solution. If an Acceptor bead is within that proximity, which is mostly upon CA:CAI interaction, energy is transferred from the singlet oxygen to thioxene derivates within the Acceptor and signal at 520 - 620 nm is emitted.
In the case of `c1ccc2c(NCCCn3ccnc3)nc(-c3ccncc3)nc2c1` [AMR.347], the IC50 – broadly, the concentration that inhibits the measured activity by half – is more than 200 µM.

The same test, now with this note: read-out: α screen IC50; CAI-biotin peptide / CA-GST; compounds screened at 0.5-100 µM; tested form: HCl.
Consider `CCOC(=O)c1ccc(Nc2nc(-c3cccnc3)nc3ccccc23)cc1`, for which the IC50 is 14.2 µM. Consider `c1cncc(-c2nc(Nc3ccc4[nH]nnc4c3)c3ccccc3n2)c1` [AMR.325], for which the IC50 stood at 1.9 µM. As to `COc1ccc(Nc2nc(-c3cccnc3)nc3ccccc23)cc1OC` [AMR.328], the IC50 was more than 200 µM.

For `c1ccc2c(NCCCn3ccnc3)nc(-c3ccncc3)nc2c1` [AMR.347], the half-inhibitory concentration (IC50) stood at 153 µM. With `CN(C)c1ccc(Nc2nc(-c3cccnc3)nc3ccccc23)cc1` [AMR.357], the half-inhibitory concentration (IC50) turned out to be 66.7 µM. On the same count and under the same terms, for `CN(C)c1ccc(Nc2nc(-c3cccnc3)nc3ccccc23)cc1` [AMR.378 .HCl] the value was 24.7 µM; for `CN(C)c1cccc(Nc2nc(-c3cccnc3)nc3ccccc23)c1` [AMR.379], 30.1 µM. For the compound `CN(C)c1ccc(Nc2nc(-c3ccc(Cl)cc3Cl)nc3ccccc23)cc1` [AMR.402], the IC50 was found to be 28.6 µM. Take `O=[N+]([O-])c1ccc(Nc2nc(-c3ccncc3)nc3ccccc23)c(F)c1` [AMR.424]: the IC50 was found to be 1.9 µM.

`O=[N+]([O-])c1ccc(Nc2nc(-c3ccncc3)nc3ccccc23)c(F)c1` [AMR.448]: the concentration for half-maximal inhibition (IC50) was 2.6 µM. Regarding `Cn1nnc2ccc(Nc3nc(-c4ccncc4)nc4ccccc34)cc21` [AMR.479-MAT], the IC50 was 123 µM.

With `Cn1nnc2ccc(Nc3nc(-c4ccncc4)nc4ccccc34)cc21` [AMR.479], the IC50 was 53.7 µM.

A further test deals with wild type NL4.3 HIV-1. The test is described as follows: Tissue culture infectivity test, TZM titration of supernatants from infected TZM cells. The following applies: Table 5, based on the TZM titration, tested form: HCl. The format is cell-based. As to the method: Hits selected in the YFP-screen were further evaluated in the tissue culture experiments with cells infected with the wild type NL4.3 HIV-1. The virus for infection was obtained from co-culture of MT4 cells. The MT4 cells co-culture was synchronized for one week and then used for the infection of fresh MT 4 cells. 48 hrs post-infection was the culture supernatant harvested, cleared by the filtration through […] filter and stored in -80 °C in 1 ml aliquots. Amount of virus was quantified by enzyme-linked immuno sorbent assay (ELISA) with antibodies against HIV-1 CA (3 ng of CA/ml) and blue cell assay (1x10^5 IU/ml), which gives 3 x 10^4 IU/ng of CA.
For compounds testing the TZM cells were seeded on 96-well plate in the density 5 x 10^3 cells per well. The culture media was aspirated approx. 16 hrs later and cells were infected by the wild type NLA.3 HIV-1 by addition of 50J..il of prepared virus stock diluted with 50 µl of complete DMEM. The compounds were added twice to ensure that there are not any preassembled viruses present at the time of their addition. […]
TZM titration was performed on the cells seeded day before on 96-well plate in the density 5 x 10^3 cells per well. […] The luminescence signal was measured on Luminoskan Ascent (Thermo Labsystems) after the transfer of 80 µl of lysate to the flat bottom white polystyrene assay plates (Costar).
`c1cncc(-c2nc(Nc3ccc4[nH]nnc4c3)c3ccccc3n2)c1` [AMR.325] displayed an IC50 of 8.8 µM.
